A mixed list of measured activities; the numbers were collected in NIAID ChemDB.

Common to all: whole-cell or culture tests; species: HIV-1; cell line: MT-4; measure: EC50

Rows are shuffled and stem from different studies. ECn is the concentration giving n% inhibition of infection, replication or growth. Blank or dashed fields: not listed here.

structure | strain or isolate | mutations | read by | result
CCN[C@H]1CO[C@@H]2OCC[C@H](OC(=O)N[C@@H](Cc3ccccc3)[C@H](O)CN(CC(C)C)S(=O)(=O)c3ccc4nc(NC5CC5)sc4c3)[C@@H]21 | NL4-3 | L10F K20T D30N K45I A71V V77I | p24 / luminescence | 0.0034 µM
COC(=O)c1cc(CN2CCCNCCNCCCNCC2)ccc1CN1CCCNCCNCCCNCC1 | RF |  | cytopathic effect / MTT | 1.4 µg/mL
CC(C)CN(C[C@@H](O)[C@H](Cc1ccccc1)NC(=O)[C@H](CC(N)=O)NC(=O)c1ccc2ccccc2n1)C(=O)NC(C)(C)C | NL4-3 | PR-L10R | p24 | <0.1 µM
CN[C@H]1CO[C@@H]2OCC[C@H](OC(=O)N[C@@H](Cc3cccc(OC)c3)[C@H](O)CN(CC(C)C)S(=O)(=O)c3ccc4nc(NC(C)C)sc4c3)[C@@H]21 | NL4-3 | L10F K20T D30N K45I A71V V77I | p24 / luminescence | 0.043 µM
O=C1N(Cc2ccc(CO)cc2)[C@H](Cc2ccccc2)[C@H](O)[C@@H](O)[C@@H](Cc2ccccc2)N1Cc1ccc(CO)cc1 | IIIB | PR-G48V L90M | cytopathic effect / XTT | 0.05 µM
C#Cc1ccc(Nc2nccc(Oc3c(C)cc(-c4cn(CC(=O)Nc5ccc(Br)cc5)nn4)cc3C)n2)cc1 | IIIB | Y181C | MTT | >19.78 µM
Cc1cc(C#Cc2ccc(C(=O)O)cc2)cc(C)c1Oc1ccnc(Nc2ccc(C#N)cc2)n1 | IIIB | Y181C | MTT | 0.45 µM
Nc1ccn([C@H]2CC[C@@H](CO)O2)c(=O)n1 | FO-01.95 |  | cytopathic effect | 1.55 µM
Cc1cc(C#Cc2cccnc2)cc(C)c1Oc1ccnc(Nc2ccc(C#N)cc2)n1 | IIIB | E138K | MTT | 0.022 µM
Cc1cn([C@H]2C[C@H](N=[N+]=[N-])[C@@H](CO)O2)c(=O)[nH]c1=O | KMR50 |  | cytopathic effect / trypan blue | 0.005 µM
C#Cc1ccc(Nc2nccc(Oc3c(C)cc(-c4cn(Cc5ccc(C(N)=O)cc5)nn4)cc3C)n2)cc1 | IIIB | L100I | MTT | 0.63 µM
Fc1c(F)c(CN2CCCNCCNCCCNCC2)c(F)c(F)c1CN1CCCNCCNCCCNCC1 | RF |  | cytopathic effect / MTT | 0.08 µg/mL
O=c1[nH]cnc2c1ncn2[C@H]1CC[C@@H](CO)O1 | 126 WT |  | p24 | 22 µM
c1ccc(-c2cc(CN3CCCNCCNCCCNCC3)ccc2CN2CCCNCCNCCCNCC2)cc1 | NL4-3 |  | cytopathic effect / MTT | 0.134 µg/mL
C#Cc1ccc(Nc2nccc(Oc3c(C)cc(-c4cn(CC(=O)Nc5ccc(S(C)(=O)=O)cc5)nn4)cc3C)n2)cc1 | IIIB | F227L and V106A | MTT | >6.36 µM
CC(C)CN(C[C@@H](O)[C@H](Cc1ccccc1)NC(=O)O[C@H]1CCOC1)S(=O)(=O)c1ccc(N)cc1 | NL4-3 | L10F M46I I54V V82A LPV resistant |  | 0.033 µM
CC(C)(C)NC(=O)[C@@H]1C[C@@H]2CCCC[C@@H]2CN1C[C@@H](O)[C@H](Cc1ccccc1)NC(=O)[C@H](CC(N)=O)NC(=O)c1ccc2ccccc2n1 | NL4-3 | PR-D30N | p24 | <0.01 µM
Cc1cc(C#Cc2ccccc2)cc(C)c1Oc1ccnc(Nc2ccc(C#N)cc2)n1 | IIIB |  | MTT | 0.038 µM
C#Cc1ccc(Nc2nccc(Oc3c(C)cc(-c4cn(Cc5ccc(O)cc5)nn4)cc3C)n2)cc1 | IIIB |  | MTT | 0.014 µM
CC(=O)Nc1cccc(C#Cc2cc(C)c(Oc3ccnc(Nc4ccc(C#N)cc4)n3)c(C)c2)c1 | IIIB | Y188L | MTT | >0.844 µM
O=c1[nH]cnc2c1ncn2[C@H]1CC[C@@H](CO)O1 | IIIB |  | p24 | 4.2 µM
c1ccc(-c2cc(CN3CCCNCCNCCCNCC3)cc(CN3CCCNCCNCCCNCC3)c2)cc1 | AOM |  | cytopathic effect / MTT | 0.08 µg/mL
Cc1cc(C#Cc2cccc(N)c2)cc(C)c1Oc1ccnc(NC2CCN(Cc3cccc(C(N)=O)c3)CC2)n1 | IIIB | L100I | MTT | >0.63 µM
C#Cc1ccc(Nc2nccc(Oc3c(C)cc(-c4cn(-c5cccc(C(=O)OC)c5)nn4)cc3C)n2)cc1 | IIIB | E138K | MTT | 0.1 µM
CCN[C@H]1CO[C@@H]2OCC[C@H](OC(=O)N[C@@H](Cc3cccc(OC)c3)[C@H](O)CN(CC(C)C)S(=O)(=O)c3ccc4nc(NC(C)C)sc4c3)[C@@H]21 | NL4-3 | L10I M46L I54V V82A | p24 / luminescence | 0.0044 µM
Cc1cc(C#Cc2cccc(N)c2)cc(C)c1Oc1ccnc(NC2CCN(Cc3ccc(S(N)(=O)=O)cc3)CC2)n1 | IIIB | E138K | MTT | 0.025 µM
Cc1cn([C@H]2C=C[C@@H](CO)O2)c(=O)[nH]c1=O | BI-12.96 (HXB2(RT-A62V S68G T69D V75I F77L F116Y Q151M)) | RT-A62V S68G T69D V75I F77L F116Y Q151M | cytopathic effect | >6 µM
CC(C)CN(C[C@@H](O)[C@H](Cc1ccccc1)NC(=O)O[C@H]1CCO[C@H]2OCC[C@H]21)S(=O)(=O)c1ccc2nc(NC3CC3)sc2c1 | NL4-3 | L10I L33I M36I M46I I54V K55R I62V L63P A71V G73S V82T L90M I93L | p24 / luminescence | 0.038 µM
Cc1cc(C#Cc2ccccc2)cc(C)c1Oc1ccnc(NC2CCN(Cc3ccc(S(N)(=O)=O)cc3)CC2)n1 | IIIB | Y188L | MTT | 0.123 µM
CC(C)CN(C[C@@H](O)[C@H](Cc1ccccc1)NC(=O)O[C@H]1CO[C@H]2OCC(F)(F)[C@H]21)S(=O)(=O)c1ccc(N)cc1 | NL4-3 | M46I I50V N38K M36I GRL05010-resistant |  | 0.036 µM
Cc1cc(C#Cc2ccccn2)cc(C)c1Oc1ccnc(Nc2ccc(C#N)cc2)n1 | IIIB | E138K | MTT | 0.138 µM
Cc1cn([C@H]2C[C@H](N=[N+]=[N-])[C@@H](CO)O2)c(=O)[nH]c1=O | LZ-05.95 |  | cytopathic effect | 0.03 µM
CC1(C)[C@@H](O[C@H]2O[C@H](C(=O)O)[C@@H](O)[C@H](O)[C@H]2O[C@@H]2O[C@H](C(=O)O)[C@@H](O)[C@H](O)[C@H]2O)CC[C@]2(C)[C@H]3C(=O)C=C4[C@@H]5C[C@@](C)(C(=O)O)CC[C@]5(C)CC[C@@]4(C)[C@]3(C)CC[C@@H]12 |  |  | RT activity | 48 µM
C#Cc1ccc(Nc2nccc(Oc3c(C)cc(-c4cn(Cc5cccc(C(=O)OC)c5)nn4)cc3C)n2)cc1 | IIIB | E138K | MTT | 0.96 µM
COC(=O)N[C@H](C(=O)N[C@@H](Cc1ccccc1)[C@@H](O)CN(Cc1ccc(-c2ccccn2)cc1)NC(=O)[C@@H](NC(=O)OC)C(C)(C)C)C(C)(C)C | NL4-3 | L10I I15V K20R L24I V32I M36I M46I I54V I62V L63P K70Q V82A L88M | p24 / luminescence | >1 µM
C#Cc1ccc(Nc2nccc(Oc3c(C)cc(-c4cn(CCC(=O)OC)nn4)cc3C)n2)cc1 | IIIB | Y181C | MTT | 3.37 µM
Cc1ccnc2c1NC(=O)c1cccnc1N2C1CC1 | IIIB | RES056 | MTT | 2.221 µM
COc1ccc(S(=O)(=O)N(CC(C)C)C[C@@H](O)[C@H](Cc2ccccc2)NC(=O)O[C@H]2CO[C@H]3OCC(F)(F)[C@H]32)cc1 | NL4-3 | L23I E34Q K43I M46I I50L G51A L63P A71V V82A T91A ATV resistant |  | 0.02 µM
CC(C)(C)NC(=O)[C@@H]1C[C@@H]2CCCC[C@@H]2CN1C[C@@H](O)[C@H](Cc1ccccc1)NC(=O)[C@H](CC(N)=O)NC(=O)c1ccc2ccccc2n1 | NL4-3 | PR-L10R L63P | p24 | <0.025 µM
CC(C)=CCN1Cc2cc(Cl)cc3[nH]c(=S)n(c23)C[C@@H]1C |  | RT-K70R Y181C |  | <3 µM

2 of the rows above, restated:

O=c1[nH]cnc2c1ncn2[C@H]1CC[C@@H](CO)O1 ; strain or isolate: IIIB ; read by: p24 ; result: 4.2 µM
Cc1ccnc2c1NC(=O)c1cccnc1N2C1CC1 ; strain or isolate: IIIB ; mutations: RES056 ; read by: MTT ; result: 2.221 µM